Reference: paper PMC10479830, “Nucleoside analogs NM107 and AT-527 are antiviral against rubella virus” (PNAS Nexus, 2023)

Test system: rubella RA27/3 virus
Type: cell-based
Conditions: A549 cells
Description: We developed a high-throughput, high-content, cell-based assay to monitor rubella virus infection of the human respiratory cell line A549, as the respiratory tract is infected in humans. […] We infected A549 cells with the rubella virus vaccine strain (RA27/3) and monitored infection using an antibody to the viral glycoprotein E1 (Fig. 1A) ([13]). […] To evaluate the utility of nanchangmycin as a positive control for our assay development, we performed a dose–response assay for nanchangmycin using automated fluorescent microscopy to quantify the cell number as a surrogate for cell viability and percent infection (Fig. 1A).
A549 cells were plated in 384 well plates at 3,000 cells/well, HBMEC were plated at 7,000 cells/well, or Jeg-3 cells were plated at 3,000 cells/well in 20 μL growth media. The next day, 50 nL of drugs were added to assay wells, yielding a final concentration of 1 µM. The positive control nanchangmycin (n = 32) and the negative control DMSO (n = 32) were spotted on each assay plate. […] HBMECs were spin-infected by centrifuging at 1,250×g for 1 h at 25°C. Cells were fixed at 48 h post infection (hpi) in 4% formaldehyde/phosphate-buffered saline (PBS) for 15 min at room temperature and then washed twice with PBS. Cells were blocked with blocking buffer [2% bovine serum albumin in PBS with 0.1% Triton X-100 (PBST)]) for 1 h and incubated with primary antibody (mouse antirubella E1, CDC, 1 μg/mL) overnight at 4°C. […] Cells were washed three times with PBST and imaged using ImageXpress Micro (Molecular Devices). Cells were imaged with a 10× objective capturing four sites per well. The total number of cells and the percentage of infected cells were measured using the MetaXpress 5.3.3 cell scoring module. The aggregated percent infection of the DMSO and 2 µM nanchangmycin control wells on each assay plate were used to calculate Z′-factors. Sample well infection was normalized to aggregated DMSO plate control wells and expressed as percentage of control (POC = [%Infection sample/Average %Infection DMSO] × 100) and Z-score (Z = [%Infection sample − Average %Infection DMSO]/Standard Deviation %Infection DMSO) in Spotfire (PerkinElmer). Candidate hits were selected as compounds with POC <40% and viability >60%, compared with vehicle control.
Drugs were purchased as powders from Selleckchem, MedchemExpress, and MedKoo and suspended in DMSO. Drugs were arrayed in 8-pt dose–response in 384 well plates. Infections were performed using the screening conditions. DMSO (n = 32) and 2 µM nanchangmycin (n = 16) were included on each validation plate as controls for normalization. Infection at each drug concentration was normalized to aggregated DMSO plate control wells and expressed as POC (POC = %Infection sample/Average %Infection DMSO cont). A nonlinear regression curve fit analysis (GraphPad Prism 8) was performed on POC infection and cell viability using log10 transformed concentration values to calculate IC50 values for infection and CC50 values for cell viability. SI was calculated as a ratio of the drug's CC50 and IC50 values (SI = CC50/IC50).

Compound: Nc1nc(-c2nn(Cc3ccccc3F)c3ncccc23)ncc1C1CC1 [BAY-41-2272]
- selectivity index (SI = CC50/IC50): 7

Compound: Cn1cc(C2=C(c3cccc(N)c3)C(=O)NC2=O)c2ccccc21 [CP21R7]
- selectivity index (SI = CC50/IC50): 1

Compound: Cc1ccc(S(=O)(=O)Cc2nc(-c3ccc(C(=O)NCc4cccnc4)cc3)oc2C)cc1 [STF-118804]
- selectivity index (SI = CC50/IC50): > 500

Compound: CO[C@H]1CC[C@@H](O[C@H]2C[C@H]([C@]3(C)CC[C@]4(C[C@H](O)[C@@H](C)[C@@H]([C@@H](C)/C=C(\C)C(=O)[C@H](C)C[C@H](C)C(=O)O)O4)O3)O[C@]3(O[C@@H]([C@H]4O[C@@](O)(CO)[C@H](C)C[C@@H]4C)C[C@@H]3C)[C@@H]2C)O[C@@H]1C [nanchangmycin]
- selectivity index (SI = CC50/IC50): 100

Compound: PF-429242
- selectivity index (SI = CC50/IC50): 298
